Measured values reported in US20260259169A1, “BETA-LACTAMASE SUBSTRATE COMPOUNDS AND ELECTROCHEMICAL DETECTION METHODS USING THEM” (priority 2023, published 2026).

System: beta-lactamases
Test: Cyclic voltammetry in the presence and absence of beta-lactamases
Type: biochemical
Conditions: 1 entire voltage cycle; signal only in positive samples

CC(C)(ON=C(C(=O)NC1C(=O)N2C(C(=O)O)=C(C=Cc3ccc(C#N)cc3[N+](=O)[O-])CSC12)c1csc(N)n1)C(=O)O (stereo not shown) [2-nitro-4-cyano]
potential of the oxidation signal specific for the presence of beta-lactamases: +0.3 V vs. Ag/AgCl
